Activity calls are given as the source filed them. The rule behind the calls is not given here.
System: Staphylococcus aureus
Assay: Disruption of cell membrane in methicillin-resistant Staphylococcus aureus ATCC BAA-44 in presence of light by propidium iodide staining-based assay

In the case of `O=[As]c1ccccc1` (stereo unspecified), the Activity was “Active”.

— ChEMBL document CHEMBL4229395, “Photoactivated 2,3-distyrylindoles kill multi-drug resistant bacteria” (Bioorg Med Chem Lett, 2018)
